{
  "source": "paper PMC12363175",
  "key": {"[1]": {"molecular_target": "minke whale ACE2 ectodomain fused with mFc (minke whale (Balaenoptera acutorostrata scammoni))", "assay": "SPR", "settings": "domain or fragment"}, "fulvous fruit bat ACE2": {"molecular_target": "fulvous fruit bat ACE2", "assay": "SPR", "settings": "domain or fragment"}},
  "data": [
    {"substance": "SARS-CoV-2 PT-RBD (from UniProt P0DTC2)", "values": [
      {"measurement": "Kd", "setting": "[1]", "value": 401, "unit": "nM"},
      {"measurement": "Kd", "setting": "fulvous fruit bat ACE2", "value": 5280, "unit": "nM"}
    ]}
  ]
}
